Where two headings read alike, the source gives them in different places.
Assays:
Assay in all cases: biochemical
[1] = target: HLA-DQ DQA1*03:01/DQB1*03:01 (Homo sapiens, UniProt P01909+P01920, A209T/C70Q/DUP78-78/E183D/F237L/G63E/I129T/K197E/L178F/L74F/L98V/Q57E/Q76R/S185I/S97I/T49S/V73L); assay type: binding
[2] = target: HLA-DQ DQA1*01:02/DQB1*06:02 (Homo sapiens, UniProt P01909+P01920, A157G/A45G/C70R/E118A/E183D/E77G/F83G/G63E/H151Q/H199R/H252R/H253Q/I129T/I235V/I88M/INS77G/K197Q/L117V/L119F/L178F/L71W/L74F/L85Q/L91A/L98M/N214S/P87R/Q116E/Q76K/R102G/R240Q/R75S/R78G/S102Y/S185I/S41F/S97I/T121G/T122I/T172A/T86R/V229M/V68A/V73E/Y34C/Y41F/Y58L); assay type: binding
[3] = target: HLA-DQ DQA1*04:01/DQB1*04:02 (Homo sapiens, UniProt P01909+P01920, A45G/E106S/E183D/E77G/E98D/H199R/I129T/K197E/L107V/L178F/L91T/P87R/P88L/R102E/S185I/S97I/T103D/T217I/V99I/Y41F/Y58G)
[4] = target: HLA-DQ DQA1*02:01/DQB1*02:02 (Homo sapiens, UniProt P01909+P01920, A45G/A70V/C70K/D167G/D89A/E106A/E183D/E77G/E98D/F237L/F77L/G63E/H199R/I129T/K197E/L107V/L178F/L74F/N214S/P84L/P87L/Q57E/Q76R/R75H/S185I/S97I/T103K/T109R/T172A/T60S/V73L/V78E/V99I/Y48F/Y58L/Y62S/Y69I/Y79F); assay type: binding
[5] = target: HLA-DQ DQA1*01:02/DQB1*05:02 (Homo sapiens, UniProt P01909+P01920, A157S/A45G/A70V/C70R/D89S/E106S/E118A/E183D/E77G/F83G/G63E/H151Q/H199R/H252R/H253Q/I129T/I235V/I88M/INS77G/K197Q/L107V/L117V/L119Y/L178F/L71W/L74F/L85Q/L91A/L98M/M46L/N214S/P87R/Q116E/Q158H/Q256R/Q76K/R102G/R240Q/R75S/R78G/S102Y/S185I/S41F/S97I/T103A/T109R/T121G/T122I/T172A/T86R/V148I/V229M/V68A/V73E/Y34C/Y58G/Y62H)
[6] = target: HLA-DQ DQA1*01:03/DQB1*06:03 (Homo sapiens, UniProt P01909+P01920, A157G/A45G/C70R/E118A/E183D/E77G/F83G/G63E/H199R/H252R/H253Q/I129T/I235V/I88M/INS77G/K197Q/L117V/L119F/L178F/L71W/L74F/L85Q/L91A/L98M/N214S/P87R/Q116E/Q76K/R102G/R240Q/R64K/R75S/R78G/S102Y/S152A/S185I/S41F/S97I/T121G/T122I/T172A/T86R/V68A/V73E/Y34C/Y48F/Y58L/Y62H)
[7] = target: HLA-DQ DQA1*01:01/DQB1*05:01 (Homo sapiens, UniProt P01909+P01920, A157S/A45G/A70V/C70R/D89V/E106S/E118A/E183D/E77G/F83G/G63E/H151Q/H199R/H252R/H253Q/I129T/I235V/I88M/INS77G/K197Q/L107V/L117V/L119Y/L178F/L71W/L74F/L85Q/L91A/L98M/M46L/N214S/P87R/Q116E/Q256R/Q57E/Q76K/R102G/R240Q/R75S/R78G/S102Y/S185I/S41F/S97I/T103A/T109R/T121G/T122I/T172A/T86R/V148I/V68A/V73E/Y34C/Y58G/Y62H)
[8] = target: HLA-DQ DQA1*03:01/DQB1*03:02 (Homo sapiens, UniProt P01909+P01920, A209T/A45G/C70Q/D89A/DUP78-78/E183D/E77G/F237L/G63E/H199R/I129T/K197E/L178F/L74F/L98V/Q57E/Q76R/S185I/S97I/T217I/T49S/V73L/Y58L); assay type: binding; details: read-out: Binding capacity/IC50 (nM) DQA1*03:01 DQB1*03:02
[9] = target: HLA-DQ DQA1*01:04/DQB1*05:03 (Homo sapiens, UniProt P01909+P01920, A157S/A221T/A45G/A70V/C70R/D25G/E106S/E118A/E183D/E77G/F83G/G63E/H151Q/H199R/H252R/H253Q/I129T/I235V/I88M/INS77G/K197Q/L107V/L117V/L119Y/L178F/L71W/L74F/L85Q/L91A/L98M/M46L/N214S/P87R/Q116E/Q256R/Q57E/Q76K/R102G/R240Q/R75S/R78G/S102Y/S185I/S41F/S97I/T103A/T109R/T121G/T122I/T172A/T86R/V148I/V68A/V73E/Y34C/Y58G/Y62H)
[10] = target: HLA-DQ DQA1*05:01/DQB1*02:01 (Homo sapiens, UniProt P01909+P01920, A45G/A70V/D89A/E106A/E77G/E98D/H199R/L107V/N214S/P84L/P87L/T103K/T109R/T172A/T60S/V78E/V99I/Y58L/Y62S/Y69I/Y79F)
[11] = read-out: Binding capacity/IC50 (nM) DQA1*03:01 DQB1*03:01
[12] = read-out: Binding capacity/IC50 (nM) DQA1*02:01 DQB1*02:02
[13] = read-out: Binding capacity/IC50 (nM) DQA1*01:02 DQB1*06:02

SMILES | IC50 [1, 11] [nM] | IC50 [2] [nM] | IC50 [3] [µM] | IC50 [4, 12] [nM] | IC50 [5] [µM] | IC50 [6] [µM] | IC50 [7] [µM] | IC50 [8] [nM] | IC50 [9] [µM] | IC50 [10] [µM] | IC50 [4] [nM] | IC50 [1] [nM] | IC50 [2, 13] [nM]
CC[C@H](C)[C@H](NC(=O)CNC(=O)[C@H](CCCCN)NC(=O)[C@H](Cc1c[nH]cn1)NC(=O)[C@H](C)NC(=O)[C@@H]1CCCN1C(=O)[C@@H](NC(=O)[C@H](Cc1c[nH]c2ccccc12)NC(=O)[C@H](CO)NC(=O)[C@H](CC(C)C)NC(=O)[C@H](Cc1ccc(O)cc1)NC(=O)[C@@H](NC(=O)[C@H](CCCCN)NC(=O)[C@H](CCC(=O)O)NC(=O)[C@@H](N)CCCCN)C(C)C)C(C)C)C(=O)NCC(=O)NCC(=O)N[C@@H](CC(N)=O)C(=O)N[C@@H](CCC(=O)O)C(N)=O [RT(528-546)] | 70 | 451 | 9.87 | 21400 | > 30 | 0.219 | 7.07 | > 30000 | 2.75 | 3.79 | – | – | –
CSCC[C@H](NC(=O)[C@H](CCCCN)NC(=O)[C@H](C)NC(=O)[C@@H](N)Cc1ccc(O)cc1)C(=O)N[C@@H](CCCNC(=N)N)C(=O)N[C@@H](CO)C(=O)N[C@@H](C)C(=O)N[C@@H](Cc1c[nH]cn1)C(=O)N[C@H](C(=O)N[C@@H](CC(N)=O)C(=O)N[C@@H](CC(=O)O)C(=O)N[C@H](C(=O)N[C@@H](CCCCN)C(=O)N[C@@H](CCC(N)=O)C(=O)N[C@@H](CC(C)C)C(N)=O)C(C)C)[C@@H](C)O [RT(354-368)] | 33 | 440 | > 30 | – | 5.91 | 0.337 | 3.66 | > 30000 | 3.92 | > 30 | 25900 | – | –
CC[C@H](C)[C@H](NC(=O)[C@@H](NC(=O)[C@H](CCCCN)NC(=O)[C@H](C)NC(=O)[C@H](CCCCN)NC(=O)[C@H](CCCNC(=N)N)NC(=O)[C@H](CCCNC(=N)N)NC(=O)[C@@H]1CCCN1C(=O)[C@@H](NC(=O)[C@@H](NC(=O)[C@H](CCCCN)NC(=O)[C@@H](NC(=O)[C@H](CC(=O)O)NC(=O)[C@H](CO)NC(=O)[C@H](CC(N)=O)NC(=O)[C@H](CC(=O)O)NC(=O)[C@H](CCC(N)=O)NC(=O)[C@@H](NC(=O)[C@@H](NC(=O)[C@@H](N)C(C)C)C(C)C)[C@@H](C)CC)[C@@H](C)CC)C(C)C)C(C)C)[C@@H](C)CC)C(N)=O [integrase(249-268)] | – | – | > 30 | > 30000 | 4.11 | 0.884 | 4.04 | > 30000 | 24 | > 30 | – | 4190 | 11300
CC[C@H](C)[C@H](NC(=O)[C@@H](NC(=O)[C@H](CCCCN)NC(=O)[C@@H](NC(=O)[C@@H]1CCCN1C(=O)[C@H](Cc1c[nH]c2ccccc12)NC(=O)[C@H](CCCNC(=N)N)NC(=O)CNC(=O)[C@H](C)NC(=O)[C@H](CC(C)C)NC(=O)[C@H](CCCCN)NC(=O)[C@H](CC(C)C)NC(=O)[C@@H](NC(=O)[C@H](Cc1ccccc1)NC(=O)[C@H](Cc1ccc(O)cc1)NC(=O)[C@H](C)NC(=O)[C@@H](NC(=O)[C@@H](N)CCC(=O)O)[C@@H](C)O)[C@@H](C)CC)C(C)C)C(C)C)C(N)=O [integrase(96-113)] | – | – | > 30 | > 30000 | 0.564 | 1.24 | 0.098 | 7100 | 0.268 | > 30 | – | 5410 | 311
CC[C@H](C)[C@H](N)C(=O)N[C@@H](CCCNC(=N)N)C(=O)N[C@@H](Cc1ccc(O)cc1)C(=O)N1CCC[C@H]1C(=O)N[C@@H](CC(C)C)C(=O)N[C@H](C(=O)N[C@@H](Cc1ccccc1)C(=O)NCC(=O)N[C@@H](Cc1c[nH]c2ccccc12)C(=O)N[C@@H](CS)C(=O)N[C@@H](Cc1ccccc1)C(=O)N[C@@H](CCCCN)C(=O)N[C@@H](CC(C)C)C(=O)N[C@H](C(=O)N1CCC[C@H]1C(=O)N[C@H](C(=O)N[C@@H](CC(=O)O)C(=O)N1CCC[C@H]1C(=O)N[C@@H](CCCNC(=N)N)C(=O)N[C@@H](CCC(=O)O)C(=O)N[C@H](C(=O)N[C@@H](CCC(=O)O)C(=O)N[C@@H](CCC(=O)O)C(=O)N[C@@H](C)C(N)=O)C(C)C)C(C)C)C(C)C)[C@@H](C)O [nef(133-156)] | 4270 | – | 3.98 | > 30000 | 3.26 | 2.09 | 0.915 | > 30000 | 12.3 | 1.84 | – | – | 10200
CC(C)C[C@H](NC(=O)CNC(=O)[C@H](Cc1c[nH]cn1)NC(=O)[C@H](CC(C)C)NC(=O)[C@H](Cc1c[nH]c2ccccc12)NC(=O)[C@@H]1CCCN1C(=O)[C@H](CCCNC(=N)N)NC(=O)[C@@H]1CCCN1C(=O)[C@H](Cc1ccccc1)NC(=O)[C@H](Cc1c[nH]cn1)NC(=O)[C@H](CCCNC(=N)N)NC(=O)[C@@H](NC(=O)[C@H](C)NC(=O)[C@@H](N)CCC(=O)O)C(C)C)C(N)=O [vpr(29-42)] | 4550 | – | > 30 | > 30000 | > 30 | 1.84 | 24.8 | > 30000 | > 30 | 26.5 | – | – | > 30000

Source: article PMC3445454, “Broad and Cross-Clade CD4^+ T-Cell Responses Elicited by a DNA Vaccine Encoding Highly Conserved and Promiscuous HIV-1 M-Group Consensus Peptides” (PLoS ONE, 2012)
